Measured values from several laboratories, pooled; numbers as filed in NIAID ChemDB.

Shared fields: cytotoxicity tests; read-out: CC50

Lines come from different laboratories, so protocols vary. Blank or dashed fields: not listed here. CCn: concentration that lowers growth or viability of the cells by n%.

compound,method,cell line,value
CCCNc1ccccc1OCCCCC(=O)OCC,,BJ,>20 µM
NC(=S)Nc1cccc(OCCCCCc2ccccc2)c1,MTS,Ava5-EG(delta4AB)SEAP,>1 µM
CCOC(=O)CCCCCOc1cccc(CN(C(=O)c2ccc(-c3ccc4ccccc4c3)cc2)C(C)C)c1,,HEK 293,>20 µM
COC(=O)N[C@@H](Cc1ccccc1Cl)C(=O)N[C@H](CCC[C@@H](CO)N(CCC(C)C)S(=O)(=O)c1ccc2ncsc2c1)C1CC1,microscopy,T lymphoid cells,>10 µM
CCOc1ccc(Nc2ncnc3c2cnn3-c2ccc(Cl)cc2Cl)cc1,,HUH 9B,23 µM
CCOC(=O)CCCCCOc1cccc(CN(C(=O)c2ccc(-c3cccc(NC=O)c3)cc2)C(C)C)c1,,HepG2,>20 µM
NC(=S)Nc1cccc(OCCCCCOc2ccccc2-c2ccc(F)cc2)c1,MTS,Ava5-EG(delta4AB)SEAP,>1 µM
CCn1c2c(c(=O)c3cc(C(C)C)ccc31)Cc1ccsc1-2,MTT,HELA-OHIO,>10 µg/mL
COc1ccc(C[C@H](N)C(=O)N[C@H]2[C@@H](O)[C@H](n3cnc4c(N(C)C)ncnc43)O[C@@H]2CO)cc1,WST,K562 (CRL-1573),0.16 µg/mL
COC(=O)C1=C(CN2CC(F)(F)[C@H]3[C@@H]2CCN3C[C@@H](F)C(C)(C)C(=O)O)NC(c2nc(C)cs2)=N[C@H]1c1cccc(F)c1Cl,WST / absorbance,HepG2.2.15,30 µM
CCc1cccc(C)c1NS(=O)(=O)c1nc2nc(C)cc(C3CC3)n2n1,WST,HEPG2 (HB-8065),>128 µg/mL
O=S(=O)(NCCc1ccc2c(n1)NCCC2)c1c(F)cccc1F,,PBMC,50 µM
Nc1cnc2c(c1)c(O)c(-c1ccccc1)c(=O)n2O,,HeLa,<100 µM
Cc1ccc(-n2ncc3c(NC(=O)Nc4ccc(C)c(C)c4)ncnc32)c(C)c1,,HUH 9B,13.5 µM
O=C(NCCCCc1ccc2c(n1)NCCC2)NCc1ccc(Cl)c(Cl)c1,,PBMC,50 µM
S=C1NCCN1C(=S)Nc1cccc(OCCCCCc2ccccc2)c1,MTS,Ava5-EG(delta4AB)SEAP,>1 µM
CCOC(=O)C1=C(CN2CC(F)(F)[C@@H]3[C@H]2CON3CC[C@@](C)(OC)C(=O)O)NC(c2nccs2)=N[C@H]1c1ccc(F)c(F)c1Cl,WST / absorbance,HepG2.2.15,>50 µM
CCOC(=O)c1ccc(Nc2ncnc3c2cnn3-c2ccc(C)cc2C)cc1,,HUH 9B,49 µM
S=C(NCCCCc1ccccc1)Nc1ccc2c(c1)Cc1cc(Br)ccc1-2,MTS,Ava5-EG(delta4AB)SEAP,>1 µM
CC[C@@H](CCC[C@@H](CO)N(CCC(C)C)S(=O)(=O)c1ccc(CO)cc1)NC(=O)[C@@H](N)C(c1ccccc1)c1ccccc1,microscopy,T lymphoid cells,>10 µM
O=C(NCc1ccccc1)c1ccc(-c2ccc3c(c2)OCO3)cc1,,HEK 293,>20 µM
CCOC(=O)C1=C(CN2CC(F)(F)[C@@H]3[C@H]2CON3C[C@H](OC)C(C)(C)C(=O)O)NC(c2nccs2)=N[C@H]1c1cccc(F)c1Cl,WST / absorbance,HepG2.2.15,100 µM
Nc1nc(=O)n([C@@H]2O[C@H](CO)[C@@H](O)[C@@H]2F)cc1I,cell count,P3HR-1,22 µM
CCOC(=O)C1=C(CN2CC(F)(F)[C@H]3[C@@H]2CCN3C[C@](C)(O)C(=O)O)NC(c2nccs2)=N[C@H]1c1cccc(F)c1F,WST / absorbance,HepG2.2.15,>50 µM
O=C(NCCc1cccc(-n2ccnc2)n1)Nc1cccc(C(F)(F)F)c1,,PBMC,10.2 µM
CCOC(=O)C1=C(CN2CC(F)(F)[C@@H]3[C@H]2CON3C[C@@H](F)C(C)(C)C(=O)O)NC(c2nccs2)=N[C@H]1c1ccc(F)cc1Cl,WST / absorbance,HepG2.2.15,>25 µM
CC[C@@H](CCC[C@@H](CO)N(C(C)C)S(=O)(=O)c1ccc(CO)cc1)NC(=O)[C@@H](NC)C(c1ccccc1)c1ccccc1,microscopy,T lymphoid cells,>10 µM
O=[N+]([O-])c1ccc2[nH]c(O)c(N=NC(=S)Nc3ccc(F)cc3)c2c1,,MDBK,20 µg/mL
Nc1nc(Cc2ccc(Cl)cc2)cc(C2CCN(C(=O)c3ccc4c(c3)OCO4)CC2)n1,,Jurkat cells (PMA-stimulated),1.3 µM
CCn1c(-c2ccco2)cc(=O)c2cc(C(C)C)ccc21,MTT,HELA-OHIO,19 µg/mL
COC(=O)N[C@H](C(=O)N[C@H](CCC[C@@H](CO)N(CC(C)C)S(=O)(=O)c1ccc2ncsc2c1)C1CC1)C(c1ccccc1)c1ccccc1,microscopy,T lymphoid cells,>10 µM
COc1ccc(-c2c(C)c(=O)c3cc(OCC(C)C)c(C)cc3n2C)cc1C,MTT,HeLa S3,>4 µg/mL
CCCN(Cc1cccc(OCCCCCC(=O)O)c1)C(=O)c1ccc(-c2ccc3c(c2)OCO3)cc1,,HEK 293,>20 µM
O=C(NCCc1ccc2c(n1)NCCC2)Nc1cccc2c1OCC2,,PBMC,4.44 µM
O=c1[nH]c(=O)n([C@H]2C[C@H](O)[C@@H](CO)O2)cc1/C=C/Cl,cell count,RF,>70 µM
CCn1c2c(c(=O)c3cc(C(C)C)ccc31)Cc1cc(C)sc1-2,MTT,HELA-OHIO,>5 µg/mL
COC(=O)N[C@@H](Cc1ccccc1Cl)C(=O)N[C@@H](C)CCC[C@@H](CO)N(CCC(C)C)S(=O)(=O)c1ccc(N)cc1,microscopy,T lymphoid cells,>10 µM
Cc1ccc(-n2ncc3c(Nc4ccc(S(=O)(=O)Nc5nccs5)cc4)ncnc32)c(C)c1,,HUH 9B,>50 µM
COc1ccc(Cc2cc(C3CCN(C(=O)c4ccc(Cl)cc4)CC3)nc(N)n2)cc1,,Jurkat cells (PMA-stimulated),>5 µM
CC[C@@H](CCC[C@@H](CO)N(CCC(C)C)S(=O)(=O)c1ccc(N)cc1)NC(=O)[C@H](Cc1ccccc1Br)NC(=O)OC,microscopy,T lymphoid cells,>10 µM
O=c1[nH]c(=O)n([C@H]2C[C@H](O)[C@@H](CO)O2)cc1I,cell count,RF,≥367 µM
COc1ccc(Cc2cc(C3CCN(C(=O)c4ccc5c(c4)OCO5)CC3)nc(Cl)n2)cc1,,Jurkat cells (PMA-stimulated),0.7 µM
CCOC(=O)CCCCCOc1cccc(CN(C(=O)c2ccc(-c3cccc(O)c3)cc2)C(C)C)c1,,HEK 293,>20 µM
CCOC(=O)C1=C(CN2CC(F)(F)[C@H]3[C@@H]2CCN3C[C@](C)(F)C(=O)O)NC(c2nc(C)cs2)=N[C@H]1c1cccc(F)c1C,WST / absorbance,HepG2.2.15,23.5 µM
O=S(=O)(NCCc1ccc2c(n1)NCCC2)c1ccccc1OC(F)(F)F,,PBMC,50 µM
NC(=S)Nc1cccc(OCCCCCOc2ccc(Cl)cc2)c1,MTS,Ava5-EG(delta4AB)SEAP,>1 µM
O=C(NCCc1ccc2c(n1)NCCC2)Nc1ccccc1Br,,PBMC,18.2 µM
CC1S/C(=N/N=C2\C(=O)Nc3ccc([N+](=O)[O-])cc32)N(c2ccc(F)cc2)C1=O,,MDBK,3 µg/mL
Cc1cc(C)n2nc(S(=O)(=O)Nc3c(Cl)ccc(C)c3Cl)nc2n1,WST,HEPG2 (HB-8065),>128 µg/mL
CC(c1ccccc1)N1CCN(c2cccc(-c3cc(=O)n(O)c4ncccc34)c2)CC1,,HeLa,<100 µM
C/C1=C\[C@H](O)C[C@@](C)(O)/C=C/[C@H](C(C)C)CC/C(C)=C/CCC1,MTT,Microglia,>100 µM
CCOC(=O)c1c(O)c2cc(-c3cccnc3)cnc2n(O)c1=O,,HeLa,<100 µM
O=C(NCCc1ccc2c(n1)NCCC2)NCc1ccccc1Cl,,PBMC,50 µM
COC(=O)N[C@@H](Cc1ccccc1Br)C(=O)N[C@@H](C)CCC[C@@H](CO)N(CC(C)C)S(=O)(=O)c1ccc(CO)cc1,microscopy,T lymphoid cells,>10 µM
O=[N+]([O-])c1ccc(NC(=S)N=Nc2c(O)[nH]c3ccc([N+](=O)[O-])cc23)cc1,,MDBK,22 µg/mL
O=c1c(-c2cccc(F)c2)c(O)c2cccnc2n1O,,HeLa,<100 µM
Cc1ccc(NC(=S)N=Nc2c(O)n(CN3CCCCC3)c3ccc([N+](=O)[O-])cc23)cc1,,MDBK,19 µg/mL
Nc1nc(Cc2ccc(Br)cc2)cc(C2CCN(C(=O)c3ccc4c(c3)OCO4)CC2)n1,,Jurkat cells (PMA-stimulated),0.7 µM
O=c1cc(NCc2cccc(CN3CCOCC3)c2)c2cccnc2n1O,,HeLa,0.13 µM
O=c1[nH]c(=O)n([C@H]2C[C@H](O)[C@@H](CO)O2)cc1-c1ccc(Br)s1,cell count,NIH 3T3,151 µM
CCn1c(-c2ccccc2)c(C)c(=O)c2cc(-c3ccccc3)ccc21,MTT,HELA-OHIO,>2.5 µg/mL
CCOC(=O)C1=C(CN2CC(F)(F)[C@H]3[C@@H]2CCN3CC[C@](C)(O)C(=O)O)NC(c2nccs2)=N[C@H]1c1ccc(F)c(F)c1F,WST / absorbance,HepG2.2.15,100 µM
Cc1cc(C2CC2)n2nc(S(=O)(=O)Nc3c(C)ccc(Cl)c3C)nc2n1,WST,K562 (CRL-1573),>128 µg/mL
NC(=S)Nc1cccc(OCCCCCOc2ccc(F)cc2)c1,MTS,Ava5-EG(delta4AB)SEAP,>1 µM
O=C(NCCc1ccc2c(n1)NCCC2)Nc1ccccc1OCc1ccccc1,,PBMC,5.6 µM
CCOC(=O)C1=C(CN2CC(F)(F)[C@@H]3[C@H]2CON3CC[C@](C)(OC)C(=O)O)NC(c2nccs2)=N[C@H]1c1cccc(F)c1C,WST / absorbance,HepG2.2.15,>100 µM
CC(C)NC(=O)NCCc1ccc2c(n1)NCCC2,,PBMC,50 µM
CC(C)(CCOc1ccccc1)CCOc1cccc(NC(N)=S)c1,MTS,Ava5-EG(delta4AB)SEAP,>1 µM
Nc1nc(Cc2ccccc2)cc(C2CCN(C(=O)c3ccc4c(c3)OCO4)CC2)n1,,Jurkat cells (PMA-stimulated),0.8 µM
COC(=O)C1=C(CN2CC(F)(F)[C@@H]3[C@H]2CON3CC[C@](C)(O)C(=O)O)NC(c2nccs2)=N[C@H]1c1ccc(F)c(F)c1C,WST / absorbance,HepG2.2.15,>100 µM
CC(=O)c1cccc(-c2ccc(C(=O)N(Cc3cccc(OCCCCCC(=O)OC(=O)O)c3)C(C)C)cc2)c1,,HepG2,>20 µM

A second listing of 4 rows from above:

compound,method,cell line,value
COc1ccc(Cc2cc(C3CCN(C(=O)c4ccc(Cl)cc4)CC3)nc(N)n2)cc1,,Jurkat cells (PMA-stimulated),>5 µM
COC(=O)N[C@@H](Cc1ccccc1Br)C(=O)N[C@@H](C)CCC[C@@H](CO)N(CC(C)C)S(=O)(=O)c1ccc(CO)cc1,microscopy,T lymphoid cells,>10 µM
CCOC(=O)c1ccc(Nc2ncnc3c2cnn3-c2ccc(C)cc2C)cc1,,HUH 9B,49 µM
O=C(NCCc1cccc(-n2ccnc2)n1)Nc1cccc(C(F)(F)F)c1,,PBMC,10.2 µM